Molecular target: Acetylcholinesterase (Homo sapiens, UniProt P22303)
Experiment: Binding affinity to tabun-human AChE complex
Conditions: read-out: Kd(app)

| SMILES | Kd [µM] |
| --- | --- |
| COc1cc2c(cc1OC)C(c1ccccc1)N(CCOCCCc1ccc(O)c(/C=N/O)n1)CC2 (configuration not stated) | 4 |
| COc1cc2c(cc1OC)C(c1ccccc1)N(CCCc1ccc(O)c(/C=N/O)n1)CC2 (configuration not stated) | 7 |

Reference: ChEMBL document CHEMBL2176915, “Phenyltetrahydroisoquinoline-pyridinaldoxime conjugates as efficient uncharged reactivators for the dephosphylation of inhibited human acetylcholinesterase” (2012)
